Reference: patent US7635685B2 (priority 2003, dated 2009)

Protein sequences, listed by entry. Tags and fused reporters are not part of them. Residues count along the entry.
UniProt P15917, 34-809 limits assumed: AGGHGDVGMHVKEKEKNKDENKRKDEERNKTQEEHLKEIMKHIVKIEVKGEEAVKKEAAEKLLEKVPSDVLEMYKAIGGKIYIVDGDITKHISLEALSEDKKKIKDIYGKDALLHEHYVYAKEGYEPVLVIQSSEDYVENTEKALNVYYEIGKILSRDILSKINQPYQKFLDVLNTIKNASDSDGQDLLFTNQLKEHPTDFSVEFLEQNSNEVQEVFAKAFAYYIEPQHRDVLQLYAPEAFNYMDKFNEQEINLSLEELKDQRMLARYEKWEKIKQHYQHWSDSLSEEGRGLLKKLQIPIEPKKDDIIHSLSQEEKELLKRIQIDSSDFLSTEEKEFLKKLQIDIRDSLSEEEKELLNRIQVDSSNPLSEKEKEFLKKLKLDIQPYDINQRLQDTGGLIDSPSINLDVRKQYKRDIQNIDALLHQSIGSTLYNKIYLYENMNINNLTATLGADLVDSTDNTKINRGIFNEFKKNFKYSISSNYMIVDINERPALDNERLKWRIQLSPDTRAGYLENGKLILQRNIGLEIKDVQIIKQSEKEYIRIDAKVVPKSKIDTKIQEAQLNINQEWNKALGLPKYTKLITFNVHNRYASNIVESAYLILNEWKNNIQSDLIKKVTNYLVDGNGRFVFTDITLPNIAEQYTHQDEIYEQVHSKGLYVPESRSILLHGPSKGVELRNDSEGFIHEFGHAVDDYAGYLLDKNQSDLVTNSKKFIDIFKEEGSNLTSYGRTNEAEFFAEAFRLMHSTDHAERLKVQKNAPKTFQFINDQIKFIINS

Target: anthrax lethal factor (LF) (Bacillus anthracis, UniProt P15917)
Experiment: in vitro fluorescent assay of inhibition of LF protease activity
[1] = read-out: Ki High salt, high salt: 10 mM potassium HEPES pH 7.4, 150 mM KCl, LF about 33 nM, without BSA
[2] = read-out: Ki Low salt, low salt: 10 mM potassium HEPES pH 7.4, LF about 33 nM, without BSA

`NCC1O[C@H](OC2C(O)[C@H](OC3C(O)[C@H](N)CC(N)[C@H]3O[C@H]3OC(CN)[C@@H](O)C(O)C3N)O[C@@H]2CO[C@@H]2OC(CO)[C@@H](O)C(O)C2O)C(N)C(O)[C@@H]1O` (some centres unmarked) [Compound XII] was tested. Which Ki [1] did it give?
The Ki was 125 µM.

What about the Ki [2] of the same compound?
Its Ki is 0.023 µM.

What does the source list for `NCC1O[C@H](O[C@@H]2C(N)C[C@@H](N)C(O)[C@H]2O[C@@H]2O[C@H](CS[C@@H]3O[C@H](CO)[C@H](O)C3O)[C@H](O[C@H]3O[C@@H](CN)[C@@H](O)C(O)C3N)C2O)C(N)[C@@H](O)[C@@H]1O` (some centres unmarked) [Compound XI]?
Ki [1]: 81 µM; Ki [2]: 0.052 µM

With neomycin B as the compound, how does the “change of binding to LF by addition of BSA” value (0.1 mg/mL BSA, low salt) read?
Its value is “not significantly affected”.

What about the “shift of Ki towards higher concentrations on increasing ionic strength” value (from 0 to 150 mM KCl) of the same compound?
The value was “about 1500 fold”.

What about the “apparent Ki value for LF in library screen” value (library of approximately 3000 compounds) of the same compound?
The value was “low nM concentration range”.

What about the Ki (read-out: Ki High salt, in the presence of BSA (in parentheses), high salt, 150 mM KCl, 0.1 mg/mL BSA) of the same compound?
Its Ki is 64 µM.

What about the Ki [1] of the same compound?
Its Ki is 59 µM.

What about the Ki (read-out: Ki Low salt, in the presence of BSA (in parentheses), low salt, 0.1 mg/mL BSA) of the same compound?
Its Ki is 0.034 µM.

What about the Ki [2] of the same compound?
The Ki was 0.037 µM.

Where two headings read alike, the source gives them in different places.
